From PMC6686156, “Discovery of Sustainable Drugs for Neglected Tropical Diseases: Cashew Nut Shell Liquid (CNSL)‐Based Hybrids Target Mitochondrial Function and ATP Production in Trypanosoma brucei” (Chemmedchem, 2019)

Tested on: T. b. brucei 427WT BSF
Test: Metabolomics assay in T. b. brucei (LC-MS)
Assay type: cell-based, Trypanosoma brucei brucei
Conditions: 0.5×EC50 of 22, 2 h

For O=C1C(Oc2cccc(CCCCCCCCO)c2)=CC(=O)c2c(O)cccc21 [Compound 22, 5‐Hydroxy‐2‐(3‐(8‐hydroxyoctyl)phenoxy)naphthalene‐1,4‐dione], the “Treated/Control, sphinganine” value (m/z 302.3046) was 1.654, the “Treated/Control, [SP (16:0)] N‐(hexadecanoyl)sphing‐4‐enine” value (m/z 538.5181) was 2.450 and the “Treated/Control, [SP (16:0)] N‐(hexadecanoyl)sphinganine” value (m/z 540.5348) was 14.230. For the same compound, the “Treated/Control, [SP (18:0)] N‐(octadecanoyl)sphing‐4‐enine (tR 5.6 min)” value (m/z 566.5493) was 4.689, the “Treated/Control, [SP (18:0)] N‐(octadecanoyl)sphing‐4‐enine (tR 3.8 min)” value (m/z 566.5504) was 3.028 and the “Treated/Control, sphing‐8(Z)‐enine‐19:0, ceramide” value (m/z 578.5528) was 6.708.
